Data on 1 substance can be found in patent publication US20200123233A1, “Amino acid sequences directed against envelope proteins of a virus and polypeptides comprising the same for the treatment of viral diseases” (published 2020).

In assay [1] the target is F protein of RSV Long escape mutant R7C2/1 (K272E) (human respiratory syncytial virus, strain Long escape mutant). Description: cell-based or functional assay.
The target of assay [2] is F protein of RSV Long escape mutant R7C2/11 (K272T) (human respiratory syncytial virus, strain Long escape mutant). Description: cell-based or functional assay.

As for “Synagis (Palivizumab, MedImmune, humanized monoclonal antibody)”, the IC50, hRSV micro neutralization of escape mutant in assay [1] and in assay [2] was greater than 200 nM throughout.
